{"source": "paper PMC10643566", "about": "“Insights into the mechanism of SARS-CoV-2 main protease autocatalytic maturation from model precursors” (Communications Biology, 2023)", "origin": "cited, not measured here", "test_system": "FRET substrate Dabcyl-KTSAVLQ/SGFRKM-E(Edans)-NH2", "conditions": "ref [11],[13]; cited from earlier work", "data": [{"substance": "MPro^1–199: MPro catalytic domain lacking the entire helical domain (residues 200–306), monomer", "values": [{"measurement": "Catalytic/Binding species", "result": "Monomer"}]}]}
